Results of unrelated studies side by side (data: NIAID ChemDB).

All rows: growth or infection tests; agent: HIV-1; measure: inhibition

Percent inhibition refers to the dose given; in toxicity tests it is the harm to the cells.

smiles,strain or isolate,mutations,cells,method,setting,tested at,value
Nc1nc(Cl)c2ncn([C@@H]3O[C@H](CO)C[C@@H]3F)c2n1,LAI,-,ATH-8 + ATH8,cytopathic effect / XTT,-,10 µM,33%
N#Cc1csc(NC(=O)NCCc2ccccc2)n1,-,-,MT-4,RT activity,-,100 µg/mL,98%
Nc1ncnc2c1ncn2COCCOP(=O)(O)O,-,-,SupT1 + Sup-T1,syncytia,-,300 µM,87%
O=C(O)C(O)c1ccccc1,IIIB,-,U87 (CD4+ CXCR4+) + U87,p24,-,1 µg/mL,14%
O=C(NCCc1ccccc1)Nc1nc2ccc(Cl)cc2s1,-,-,MT-4,RT activity,-,100 µg/mL,96%
COC(=O)c1ccc(F)c2c(C(=O)C(=O)N3CCN(C(=O)c4ccccc4)C[C@H]3C)c[nH]c12,-,-,HeLa + HELA CD4+/CCR5,luciferase,-,10 µM,>98%
Nc1ncnc2c1ncn2[C@@H]1O[C@H](COP(=O)(O)O[C@@H]2[C@H](O)[C@@H](COP(=O)(O)O[C@@H]3[C@H](O)[C@@H](CO)O[C@H]3n3cnc4c(N)ncnc43)O[C@H]2n2cnc3c(N)ncnc32)[C@@H](O)[C@H]1O,-,-,SupT1 + Sup-T1,syncytia,-,300 µM,75%
Nc1nc(N2C[C@H](O)[C@@H](O)C2)c2ncn([C@H]3C[C@@H](O)[C@@H](CO)O3)c2n1,IIIB,-,CEM-SS,visual reading / cell fusion,-,10 µM,1.2%
NCCSSCCN,BaL,-,Macrophage,p24,-,50 µM,60%
CC(=O)CCC(=O)NCCCOCCOCCCNC(=O)CNC(=O)[C@H](CS)NC(=O)[C@@H](NC(=O)[C@@H](NC(=O)[C@H](CO)NC(=O)[C@@H](N)CS)C(C)C)[C@@H](C)O,IIIB,-,PBMC(PHA STIM.) + PBMC,p24,-,1.32 µM,70%
Nc1nc2c(ncn2[C@H]2CC[C@@H](CO)O2)c(=O)[nH]1,LAI,-,ATH-8 + ATH8,cytopathic effect / XTT,-,2 µM,75%
O=C(NCCc1ccccc1)Nc1nc2ccccc2s1,-,-,MT-4,cytopathic effect / XTT,-,10 µg/mL,99–100%
CC1=C(C(=O)O)C(c2ccco2)NC(=O)N1,-,-,HEK293T,p24 / ELISA,-,100 µM,41.2%
CC(=O)N1C(=O)[C@@H](Cc2ccccc2)NC1=S,-,-,MT-4,cytopathic effect / XTT,-,1 µg/mL,5%
C[C@@H]1CN(C(=O)c2ccccc2)CCN1C(=O)C(=O)c1c[nH]c2cccc(Cl)c12,-,-,HeLa + HELA CD4+/CCR5,luciferase,-,10 µM,77%
Cc1ccc(-c2ccc3c(c2)C=C(C(=O)Nc2ccc(C[N+](C)(C)C4CCOCC4)cc2)CCC3)cc1,COT2 CLADE C,-,PBMC,p24,-,1 µM,98.5%
CCCCCCCCCCCCCCCCOP(=O)(OC[C@H]1OC(O)[C@@H](O)[C@@H](O)[C@@H]1O)OC[C@H]1O[C@@H](n2cc(C)c(=O)[nH]c2=O)C[C@@H]1N=[N+]=[N-],LAV-Bru,-,U-937,RT activity,14 d,1 µM,0%
COc1ccc(Cl)c2[nH]cc(C(=O)C(=O)N3CCN(C(=O)c4ccccc4)CC3)c12,-,-,HeLa + HELA CD4+/CCR5,luciferase,-,10 µM,>98%
Nc1ccn([C@H]2C=C[C@@H](CO)O2)c(=O)n1,IIIB,-,MT-4,antigen,-,0.1 µM,20%
CC1(C)OC(=O)C2(C(=O)O1)[C@@H](c1ccccc1)CC(=O)C[C@H]2[C@H]1COC(C)(C)O1,NL4-3,-,SupT1,MTT,-,10 µM,58%
CC(=O)N1C(=O)[C@@H](Cc2ccc(Cl)cc2)NC1=S,-,-,MT-4,cytopathic effect / XTT,-,100 µg/mL,18%
N=C1Sc2ccccc2C2=NCCCN12,RU132,-,PBMC,MTS,-,0.53 µM,90%
C=C(C)[C@@H]1CC[C@]2(C(=O)NCCCCCCCC(=O)N[C@@H](CC(C)C)[C@@H](O)CC(=O)O)CC[C@]3(C)[C@H](CC[C@@H]4[C@@]5(C)CC[C@H](O)C(C)(C)[C@@H]5CC[C@]43C)[C@@H]12,LAI,GP41-L91H,HeLa P4 + HeLa,syncytia,-,10 µM,28%
CCCCCCCCCCCCCCCCOP(=O)(OCCO[C@@H]1O[C@H](CO)[C@@H](O)[C@H](O)[C@@H]1O)OC[C@H]1O[C@@H](n2cc(C)c(=O)[nH]c2=O)C[C@@H]1N=[N+]=[N-],LAV-Bru,-,CEM,RT activity,7 d,1 µM,71%
O=C(C(=O)N1CCN(C(=O)c2ccc(C(F)(F)F)o2)CC1)c1c[nH]c2c(F)ccc(F)c12,-,-,HeLa + HELA CD4+/CCR5,luciferase,-,10 µM,>98%
Nc1ncnc2c1ncn2C1CC(F)C(COP(=O)(O)OC2C(O)C(COP(=O)(O)OC3C(O)C(CO)OC3n3cnc4c(N)ncnc43)OC2n2cnc3c(N)ncnc32)O1,-,-,SupT1 + Sup-T1,syncytia,-,300 µM,85%
Nc1ncnc2c1ncn2COCCOP(=O)(O)O[C@@H]1C[C@@H](COP(=O)(O)O[C@@H]2C[C@@H](COP(=O)(O)O[C@@H]3C[C@@H](CO)O[C@H]3n3cnc4c(NCc5ccccc5)ncnc43)O[C@H]2n2cnc3c(N)ncnc32)O[C@H]1n1cnc2c(N)ncnc21,-,-,SupT1 + Sup-T1,syncytia,-,0.1 µM,44%
C[C@H]1[C@H](O)[C@@H](C)/C=C/C=C/C=C/C=C/C=C/C=C/C=C/[C@H](O[C@@H]2O[C@H](C)[C@@H](O)[C@H](N)[C@@H]2O)C[C@@H]2O[C@](O)(C[C@@H](O)C[C@@H](O)CC[C@H](O)[C@@H](O)C[C@@H](O)CC(=O)O[C@H]1C)C[C@H](O)[C@H]2C(=O)O,92UG029 CLADE A X4 (SI),-,PBMC,p24 / RT activity,-,3.1 µM,90%
CC(C)[C@H](NC(=O)[C@H](CO)NC(=O)[C@@H](N)CS)C(=O)N[C@H](C(=O)N[C@@H](CS)C(=O)NCC(=O)O)[C@@H](C)O,p13,-,PBMC(PHA STIM.) + PBMC,p24,-,1.8 µM,95%
CN1C(C(=O)Nc2ccccn2)=C(O)c2ccccc2S1(=O)=O,MN,-,Jurkat cells,p24,-,50 µM,0%
COc1cccc2c(C(=O)C(=O)N3CCN(C(=O)c4ccccc4)C[C@@H]3C)c[nH]c12,-,-,HeLa + HELA CD4+/CCR5,luciferase,-,10 µM,>98%
Nc1ccn([C@H]2CC[C@@H](CO)O2)c(=O)n1,LAV,-,MT-2,RT activity,-,0.1 µM,95%
COC(=O)c1cccc2c(C(=O)C(=O)N3CCN(C(=O)c4ccc(Br)o4)C[C@H]3C)c[nH]c12,-,-,HeLa + HELA CD4+/CCR5,luciferase,-,10 µM,>98%
O=c1oc2cc(O)c(O)cc2c(O)c1-c1coc2c1c(=O)oc1cc(O)c(O)cc12,IIIB,-,MT-4,MTT,-,1 µM,25%
O=C(NCCc1ccccc1)Nc1nc(C(F)(F)F)cs1,-,-,MT-4,RT activity,-,10 µg/mL,96%
O=c1ccnc(N2CCCC2)[nH]1,IIIB,-,CEM-SS,XTT / cell fusion,-,10 µM,0%
Cc1nc(NC(=O)NCCc2ccccc2)sc1C,-,-,MT-4,RT activity,-,10 µg/mL,91%
O=C(C(=O)N1CCN(C(=O)c2ccccc2)CC1)c1c[nH]c2cc(F)cc(F)c12,-,-,HeLa + HELA CD4+/CCR5,luciferase,-,10 µM,>98%
COC(=O)[C@H]1[C@@H]2C[C@@H](O[C@@H]3O[C@H](C)[C@@H](O)[C@H](N)[C@@H]3O)/C=C/C=C/C=C/C=C/C=C/C=C/C=C/[C@H](C)[C@@H](O)[C@H](C)[C@H](C)OC(=O)C[C@H](O)C[C@H](O)[C@@H](O)CC[C@H](O)C[C@H](O)C[C@](O)(C[C@@H]1O)O2,IIIB,-,H9,p24 / antigen,-,1 µg/mL,43%
CC1=C(C(=O)O)C(c2cccs2)NC(=O)N1,-,-,HEK293T,p24 / ELISA,-,100 µM,28.8%
CO[C@H]1C[C@@H]2CC[C@@H](C)[C@@](O)(O2)C(=O)C(=O)N2CCCC[C@H]2C(=O)O[C@H]([C@H](C)C[C@@H]2CC[C@@H](O)[C@H](OC)C2)CC(=O)[C@H](C)/C=C(\C)[C@@H](O)[C@@H](OC)C(=O)[C@H](C)C[C@H](C)/C=C/C=C/C=C/1C,93BR029 R5 clinical isolate,-,PBMC,p24,-,0.001 µM,73%
OC[C@H]1O[C@@H](n2cnc3c(N4CC[C@@H](F)C4)ncnc32)C[C@H]1O,IIIB,-,CEM-SS,XTT / cell fusion,-,10 µM,0%
CC1(C)[C@@H](O[C@H]2O[C@H](C(=O)O)[C@@H](O)[C@H](O)[C@H]2O[C@@H]2O[C@H](C(=O)O)[C@@H](O)[C@H](O)[C@H]2O)CC[C@]2(C)[C@H]3C(=O)C=C4[C@@H]5C[C@@](C)(C(=O)O)CC[C@]5(C)CC[C@@]4(C)[C@]3(C)CC[C@@H]12,IIIB,-,MOLT-4,cytopathic effect,3 d,1200 µM,15.7%
CCCCCC1CN(C(=O)c2ccccc2)CCN1C(=O)C(=O)c1c[nH]c2c(C(=O)OC)cccc12,-,-,HeLa + HELA CD4+/CCR5,luciferase,-,10 µM,92%
NS(=O)(=O)c1ccc(NC(=O)NCCc2ccccc2)cc1,-,-,MT-4,cytopathic effect / XTT,-,10 µg/mL,22%
Cc1cn([C@H]2C[C@H](N=[N+]=[N-])[C@@H](COP(=O)(O)OCCO[C@H]3O[C@H](CO)[C@@H](O)[C@H](O)[C@@H]3O)O2)c(=O)[nH]c1=O,LAV-Bru,-,CEM,RT activity,26 d,5 µM,0%
OC[C@H]1O[C@@H](n2cnc3c(N4CC[C@H](O)C4)ncnc32)C[C@H]1O,IIIB,-,CEM-SS,visual reading / cell fusion,-,10 µM,0%
O=C(C(=O)N1CCN(C(=O)c2ccccc2)CC1)c1c[nH]c2c(F)cccc12,-,-,HeLa + HELA CD4+/CCR5,luciferase,-,10 µM,>98%
OC[C@H]1O[C@@H](n2cnc3c(N4C[C@@H](O)[C@@H](O)C4)ncnc32)C[C@H]1O,IIIB,-,CEM-SS,visual reading / cell fusion,-,10 µM,2%
CC1=C(C(=O)O)C(c2ccccc2O)NC(=O)N1,-,-,HEK293T,p24 / ELISA,-,100 µM,36.2%
Nc1ncnc2c1ncn2COCCOP(=O)([O-])O[C@@H]1C[C@@H](COP(=O)([O-])O[C@@H]2C[C@@H](COP(=O)([O-])O[C@@H]3C[C@@H](CO)O[C@H]3n3cnc4c(N)[n+](Cc5ccccc5)cnc43)O[C@H]2n2cnc3c(N)ncnc32)O[C@H]1n1cnc2c(N)ncnc21,-,-,SupT1 + Sup-T1,syncytia,-,0.01 µM,0%
CC[C@H](CO)Nc1nc(NCc2ccc(-c3ccccn3)cc2)n2ncc(C(C)C)c2n1,-,-,ACH2,trypan blue,-,0.05 µM,75%
CC1=C(C(=O)OCc2ccccc2)C(c2ccc([N+](=O)[O-])cc2)NC(=O)N1,-,-,HEK293T,p24 / ELISA,-,100 µM,36.6%
CCN(CC)C(=S)S,LAV,-,PBL,p24,-,0.00000025 µg/mL,17%

Repeating the final 7 entries:

smiles,strain or isolate,mutations,cells,method,setting,tested at,value
O=C(C(=O)N1CCN(C(=O)c2ccccc2)CC1)c1c[nH]c2c(F)cccc12,-,-,HeLa + HELA CD4+/CCR5,luciferase,-,10 µM,>98%
OC[C@H]1O[C@@H](n2cnc3c(N4C[C@@H](O)[C@@H](O)C4)ncnc32)C[C@H]1O,IIIB,-,CEM-SS,visual reading / cell fusion,-,10 µM,2%
CC1=C(C(=O)O)C(c2ccccc2O)NC(=O)N1,-,-,HEK293T,p24 / ELISA,-,100 µM,36.2%
Nc1ncnc2c1ncn2COCCOP(=O)([O-])O[C@@H]1C[C@@H](COP(=O)([O-])O[C@@H]2C[C@@H](COP(=O)([O-])O[C@@H]3C[C@@H](CO)O[C@H]3n3cnc4c(N)[n+](Cc5ccccc5)cnc43)O[C@H]2n2cnc3c(N)ncnc32)O[C@H]1n1cnc2c(N)ncnc21,-,-,SupT1 + Sup-T1,syncytia,-,0.01 µM,0%
CC[C@H](CO)Nc1nc(NCc2ccc(-c3ccccn3)cc2)n2ncc(C(C)C)c2n1,-,-,ACH2,trypan blue,-,0.05 µM,75%
CC1=C(C(=O)OCc2ccccc2)C(c2ccc([N+](=O)[O-])cc2)NC(=O)N1,-,-,HEK293T,p24 / ELISA,-,100 µM,36.6%
CCN(CC)C(=S)S,LAV,-,PBL,p24,-,0.00000025 µg/mL,17%

Two numbers with a dash give a range or band. Rows are shuffled and stem from different studies. Blank or dashed fields: not listed here.